Anti-infective test results gathered from many reports (values: NIAID ChemDB through PubChem).

Common to all: growth or infection tests; species: HIV-1; measure: EC50

An empty or dashed field is not shown. Two numbers with a dash give a range or band. Conditions beyond the fields shown may differ between rows. ECn is the concentration giving n% inhibition of infection, replication or growth.

compound	strain	mutations	cells	read by	result
COc1ccc(-c2c(C(OC(C)C)C(=O)O)c(C)nc3ccc(Cl)cc23)cc1C			C8166	luciferase / reporter gene	<20 µM
CCN1c2ncc(CCOc3ccc(-c4cccc(CC(=O)O)c4)cc3C)cc2C(=O)N(C)c2cccnc21		RT-K103N Y181C	C8166	p24	<0.01 µM
Cc1ccc(-n2c(C)nnc2SCC(=O)Nc2ccc(OC(F)(F)F)cc2Br)cc1	NL4-3	RT-K103N Y181C	HeLa + HeLa-JC53	luciferase	>10 µM
C[C@H]1CO[C@@H]2CN3C=C(C(=O)NCc4cnc5ccccn45)C(=O)C(=O)C3C(=O)N12	IIIB		CEM-SS	XTT	0.0294 µM
Cc1ccc(-c2c([C@H](OC(C)C)C(=O)O)c(C)nc3ccccc23)cc1			C8166	luciferase / reporter gene	<20 µM
COc1ccc(-c2c(C)nc3c(N4CC[C@H](NC(C)=O)C4)cc(C)nn23)cc1OC			H9	p24	2 µM
C=CCC(C(=O)O)c1c(-c2ccc(Cl)cc2)c2cc(Br)ccc2oc1=O			C8166	luciferase / reporter gene	<20 µM
Cc1ccc2cccc(-n3c(C)nnc3SCC(=O)Nc3ccc(S(N)(=O)=O)cc3Cl)c2n1	NL4-3	RT-Y188L	HeLa + HeLa-JC53	luciferase	0.39 µM
CCOc1ccc(-c2c(C(OC(C)C)C(=O)O)c(C)nc3ccc(Cl)cc23)cc1C			C8166	luciferase / reporter gene	<20 µM
Cc1ccc(-c2ccc3c(c2)C=C(C(=O)Nc2ccc(C[N+](C)(C)C4CCOCC4)cc2)CCC3)cc1	COT9 CLADE C		PBMC	p24	<1 µM
CC=CCOc1cc(NC(=S)c2ccoc2C)ccc1OC	NL4-3	RT-V108I	CEM + CEM-SS	cytopathic effect / XTT	0.09 µM
CCN1c2ncc(CCOc3ccc(C(=O)Nc4ccc(CC(=O)O)cc4)cc3C)cc2C(=O)N(C)c2cccnc21		RT-K103N Y181C	C8166	p24	0.01–0.05 µM
C[C@@H]1CO[C@@]23CCC[C@@H]2N2C=C(C(=O)NCc4ccc(F)nc4F)C(=O)C(=O)C2C(=O)N13	IIIB		CEM-SS	XTT	0.0578 µM
CC(C)CN(C[C@@H](O)[C@H](Cc1ccccc1)NC(=O)O[C@H]1CO[C@H]2OCC[C@H]21)S(=O)(=O)c1ccc2c(c1)OCO2	MDR/TM		PHA-PBM	p24	0.0032 µM
COc1ccc(-c2c(C)nc3c(N4CC[C@@H](NC(C)=O)C4)cc(C)nn23)cc1F			H9	p24	0.6 µM
CCN1c2ncc(CCOc3ccc(-c4ccc[n+]([O-])c4)cc3C)cc2C(=O)N(C)c2cccnc21		RT-K103N Y181C	C8166	p24	<0.01 µM
C[C@H]1CO[C@@H]2CN3C=C(C(=O)NCc4c(F)cc(F)nc4F)C(=O)C(=O)C3C(=O)N12	IIIB		CEM-SS	XTT	0.0174 µM
Cc1cc(S(N)(=O)=O)ccc1NC(=O)COc1ccccc1C(=O)c1cc(Cl)cc(C#N)c1	WT		HeLa MAGI + HeLa	β-galactosidase	~0.0005 µM
COc1cc(-c2ccc(N=Nc3ccc4c(S(=O)(=O)O)cc(S(=O)(=O)O)c(N)c4c3O)c(OC)c2)ccc1N=Nc1ccc2c(S(=O)(=O)O)cc(S(=O)(=O)O)c(N)c2c1O	IIIB		CEM + CEM-SS	RT activity	1.8 µM
C[C@H]1[C@H](O)[C@@H](C)/C=C/C=C/C=C/C=C/C=C/C=C/C=C/[C@H](O[C@@H]2O[C@H](C)[C@@H](O)[C@H](N)[C@@H]2O)C[C@@H]2O[C@](O)(C[C@@H](O)C[C@@H](O)CC[C@H](O)[C@@H](O)C[C@@H](O)CC(=O)O[C@H]1C)C[C@H](O)[C@H]2C(=O)O	93TH073 CLADE E R5 (NSI)		PBMC	p24 / RT activity	5.5 µM
COc1ccc(-c2c(C)nc3c(N4CC[C@@H](NC(=O)Oc5ccccc5)C4)cc(C)nn23)cc1OC			H9	p24	0.3 µM
CCN1c2ncc(CCOc3ccc(-c4ccc(Cl)c(C(=O)O)c4)cc3C)cc2C(=O)N(C)c2cccnc21		RT-K103N Y181C	C8166	p24	0.01–0.05 µM
Cc1ccsc1C(=S)Nc1ccc(Cl)c(/C=N/OC(C)(C)C)c1	RF		CEM + CEM-SS	cytopathic effect / XTT	0.083 µM
Cc1nnc(SCC(=O)Nc2ccccc2Br)n1-c1ccc(N(C)C)c2ccccc12	NL4-3	RT-Y188L	HeLa + HeLa-JC53	luciferase	0.24 µM
COc1ncc(OC)c2c(C(=O)C(=O)N3CCN(C(=O)c4ccccc4)CC3)c[nH]c12	JR-FL		PM1	p24 / ELISA	0.003 µM
O=C(NCc1c(F)cc(F)nc1F)C1=CN2C[C@H]3O[C@@H]4CC[C@@H](C4)N3C(=O)C2C(=O)C1=O	IIIB		CEM-SS	XTT	0.118 µM
COc1ccc2[nH]c(=O)c(CN(Cc3cccnc3)S(=O)(=O)c3cccc4nsnc34)cc2c1	IIIB		U1	p24 / ELISA	0.168 µM
Cc1nc2ccc(Cl)cc2c(-c2ccc(CF)cc2)c1[C@H](OC(C)(C)C)C(=O)O			C8166	luciferase / reporter gene	<20 µM
Cc1nnsc1CNC(=O)C1=CN2C[C@H]3OC[C@H](C)N3C(=O)C2C(=O)C1=O	IIIB		CEM-SS	XTT	0.0604 µM
Cc1occc1C(=S)Nc1ccc(Cl)c(C(=O)OCC2CC2)c1	NL4-3	RT-V106A	CEM + CEM-SS	cytopathic effect / XTT	1.1 µM
Cc1cc(-c2c(C(OC(C)C)C(=O)O)c(C)nc3ccc(Cl)cc23)ccc1Cl			C8166	luciferase / reporter gene	<20 µM
Cc1occc1C(=S)Nc1ccc(Cl)c(C(=O)OC(C)C)c1	NL4-3	RT-V179D	CEM + CEM-SS	cytopathic effect / XTT	0.6 µM
CCN1c2ncc(CCOc3ccc(C(=O)Nc4ccc(C(=O)O)cc4)cc3C)cc2C(=O)Nc2c(C)ccnc21		RT-K103N Y181C	C8166	p24	>0.05 µM
Cc1ccc2c(C)ccc(-n3c(SCC(=O)Nc4ccc(S(N)(=O)=O)cc4Cl)nnc3C(F)(F)F)c2c1	NL4-3	RT-Y188L	HeLa + HeLa-JC53	luciferase	0.035 µM
CCN1c2ncc(CCOc3ccc(-c4ccc(CC(=O)O)cc4)cc3CO)cc2C(=O)N(C)c2cccnc21	IIIB		C8166	p24	<0.01 µM
CC(C)=CCOc1cc(NC(=S)c2ccoc2C)ccc1Cl	4xAZT(RT-D67N K70R T215Y K219Q)	RT-D67N K70R T215Y K219Q	CEM + CEM-SS	p24	0.006 µM
Cc1occc1C(=S)Nc1ccc(Cl)c(/C=N/OC(C)(C)C)c1	NL4-3	RT-K101E	CEM + CEM-SS	cytopathic effect / XTT	1 µM
CCCC(C(=O)O)c1c(C)nc2ccc(Cl)cc2c1-c1ccc(SC)cc1			C8166	luciferase / reporter gene	<20 µM
COc1ccc(-c2c(C)nc3c(N4CCN(C(C)=O)CC4)cc(C)nn23)cc1OC			H9	p24	>1 µM